Compound potency records, mixed from different reports. Data source: NIAID ChemDB in PubChem.

Common to all: growth or infection tests; agent: HIV-1

Blank or dashed fields: not listed here.

structure | method | conditions | strain or isolate | cell line | mutations | measure | value
NC(=O)c1[nH]c2ccc(Cl)cc2c1S(=O)(=O)c1ccccc1 | cytopathic effect / MTT |  | IIIB | MT-4 |  | EC50 | 0.00125 µM
COc1ccc(N2CCN(CN3C(=O)O[C@](C#CC4CC4)(C(F)(F)F)c4cc(Cl)ccc43)CC2)cc1 | MTT |  | IIIB | CEM |  | EC50 | 0.00669 µM
NC(N)=Nc1cccc(OCc2ccc(Br)cc2)c1 | β-galactosidase / cell fusion |  |  | HUT4-3/SX22-1 |  | EC50 | >10 µM
O=C(c1ccccc1)N(CCc1ccccc1)C[C@H](O)CN(CC1CCCC1)S(=O)(=O)c1cc(C(F)(F)F)cc2[nH]cnc12 | p24 |  | IIIB | CEM |  | EC50 | <1 µM
CC(=O)Oc1ccc(/C=C/C(=O)Nc2ccc(S(=O)(=O)Nc3ccc(Cl)c(Cl)c3)cc2)cc1OC(C)=O |  |  |  | MT-4 |  | EC50 | >20 µM
O=C1Nc2ccc(Cl)cc2Sc2c1[nH]c1ccc(Cl)cc21 | cytopathic effect / MTT |  | IIIB | MT-4 |  | EC50 | >200 µM
Cc1[nH]c2ccccc2c1CCC(=O)N[C@@H](Cc1ccccc1)C(=O)N(C)c1ccccc1 | XTT |  | NL4-3 | TZM-gfp |  | EC50 | 0.61 µM
CCOP(=O)(CO[C@]1(c2ccccc2)C=C[C@H](n2cnc3c(N)ncnc32)C1)OCC |  |  |  |  |  | EC50 | >100 µM
Cc1cn([C@H]2C=C[C@@H](CO)O2)c(=O)[nH]c1=O | cytopathic effect / MTT |  | IIIB | MT-4 |  | EC50 | 0.65 µM
COc1nc(N)nc2c1ncn2[C@H]1CO[C@@H](CO)O1 | RT activity |  | LAI | PBMC |  | EC90 | 5.1 µM
Cc1ncc(-c2ccc(OCC(C)C)cn2)c(N2CCC3(CCOC3)CC2)c1[C@H](OC(C)(C)C)C(=O)O | luminescence |  | NL4-3 | MT-2 |  | EC50 | 22.3 µM
CCOC(=O)[C@H](C)NP(=O)(OC[C@@H]1OC[C@H](n2cnc3c(Cl)nc(N)nc32)O1)Oc1ccccc1 | RT activity |  | LAI | PBMC |  | EC50 | 0.004 µM
Nc1ccc(S(=O)(=O)N(CC2CCCC2)C[C@@H](O)CN(CCc2ccccc2)C(=O)O[C@H]2CCOC2)cc1 | p24 |  | IIIB | CEM |  | EC50 | <0.1 µM
CCC1(C)CCN(c2c(-c3ccc(OCCc4cn(C)nc4C)cn3)cnc(C)c2[C@H](OC(C)(C)C)C(=O)O)CC1 | luminescence |  | NL4-3 | MT-2 |  | EC50 | 4.4 µM
N=C(N)c1cccc(OCc2ccc(Br)cc2)c1 | β-galactosidase / cell fusion |  |  | HUT4-3/SX22-1 |  | EC50 | >10 µM
O=C(NCCO)c1c(O)c2ncc(Cc3ccc(F)cc3)cc2n(-c2ccc(F)cc2)c1=O | ATP / luminescence |  | IIIB | MT-4 |  | EC50 | 0.0124 µM
O=c1oc2cc(O)c(O)cc2c(O)c1-c1coc2c1c(=O)oc1cc(O)c(O)cc12 | MTT |  | IIIB | MT-4 |  | EC50 | 5 µM
N=C(N)c1cccc(OCc2cccc([N+](=O)[O-])c2)c1 | β-galactosidase / cell fusion |  |  | HUT4-3/SX22-1 |  | EC50 | >10 µM
COc1ccc(CSc2nc(C(=O)c3ccc(Cl)cc3)c(C)c(=O)[nH]2)cc1 | MTT |  | IIIB | MT-4 |  | EC50 | 7.21 µM
O=C(CNC(=O)COc1ccccc1)NCc1ccc(C(=O)N2CCCCC2)cc1 | RT activity |  | BaL | PBMC |  | EC50 | 27.8 µM
Cc1ncc(-c2ccc(OCC(C)C)cn2)c(N2CC3C(C2)C3(C)C)c1[C@H](OC(C)(C)C)C(=O)O | luminescence |  | NL4-3 | MT-2 |  | EC50 | 14.4 µM
C=CC[C@H](NC(=O)[C@H](Cc1ccccc1)NS(=O)(=O)N1CCOCC1)C(=O)N[C@@H](CC1CCCCC1)[C@@H](O)C[C@H](C(=O)NCCCC)C(C)C | cytopathic effect / XTT |  | IIIB | MT-2 |  | EC50 | 2.7 µM
FC(F)(F)[C@@]1(C#CC2CC2)OC(=S)Nc2ccc(Cl)cc21 | MTT |  | IIIB | CEM |  | EC50 | 0.00253 µM
COc1ccc(CSc2nc(C(=O)c3cccc(F)c3)c(C(C)C)c(=O)[nH]2)cc1 | MTT |  | IIIB | MT-4 |  | EC50 | 6.52 µM
COc1ccc(S(=O)(=O)N(CC2CCCC2)C[C@@H](O)CN(CC(C)C)C(=O)O[C@H]2CCOC2)cc1 | p24 |  | IIIB | CEM |  | EC90 | 1 µM
COc1c(N2CCN(CN3C(=O)O[C@](C#CC4CC4)(C(F)(F)F)c4cc(Cl)ccc43)CC2)c(F)cc2c(=O)c(C(=O)O)cn(C3CC3)c12 | MTT |  | IIIB | CEM |  | EC50 | 0.0024 µM
O=C(C1=C2C=CC=C3CCC(C=C1)C32)N1CC2CN(C(=O)c3ccccc3)CC2C1 | luciferase / single cycle | pseudotyped | JR-CSF | 293T |  | EC50 | 100 µM
Cc1ncc(-c2ccc(OCC(C)C)cn2)c(N2CCC3(CCCCC3)CC2)c1[C@H](OC(C)(C)C)C(=O)O | luminescence |  | NL4-3 | MT-2 |  | EC50 | 17.6 µM
COc1ccc(S(=O)(=O)N(CC(C)C)C[C@@H](O)CCN(CC2CCCC2)S(=O)(=O)CC2CS(=O)(=O)CC2O)cc1 | p24 |  | IIIB | CEM |  | EC50 | <1 µM
COc1ccc(CSc2nc(C(=O)c3ccc(F)cc3)c(C)c(=O)[nH]2)cc1 | MTT |  | IIIB | MT-4 | K103N/Y181C | EC50 | >225 µM
COc1cc2c(c(OC)c1O)-c1c(cc3c(c1OC)OCO3)C[C@H](C)[C@H](C)[C@@H]2O | cytopathic effect |  |  | C8166 |  | EC50 | 7.15 µg/mL
O=C(O)[C@H]1O[C@@H](Oc2cc3oc(-c4ccc(O)cc4)cc(=O)c3c(O)c2O)[C@H](O)[C@@H](O)[C@@H]1O | p24 |  | KM018 Clinical isolate | PBMC |  | EC50 | 136 µM
CCn1cc(C(=O)O)c(=O)c2cc(F)c(N3CCN(CN4C(=O)O[C@](C#CC5CC5)(C(F)(F)F)c5cc(Cl)ccc54)CC3)c(F)c21 | MTT |  | IIIB | CEM |  | EC50 | 0.00258 µM
O=C1Nc2ccc(Cl)cc2Sc2c1[nH]c1ccccc21 | cytopathic effect / MTT |  | IIIB | MT-4 |  | EC50 | ≥22 µM
Nc1nc(NC2CC2)c2ncn([C@H]3C=C[C@@H](CO)C3)c2n1 |  |  |  |  |  | EC50 | 0.13 µM
Nc1nc(N)c2ncn([C@H]3CO[C@@H](CO)O3)c2n1 | RT activity |  | LAI | PBMC |  | EC90 | 2.4 µM
O=C1O[C@](C#CC2CC2)(C(F)(F)F)c2cc(Cl)ccc2N1CN1CCN(c2ccccn2)CC1 | MTT |  | IIIB | CEM |  | EC50 | 0.0121 µM
COc1ccc(CSc2nc(C(=O)c3ccc(Br)cc3)c(C)c(=O)[nH]2)cc1 | MTT |  | IIIB | MT-4 |  | EC50 | 15.99 µM
CN(C(=O)[C@H](Cc1ccccc1)NC(=O)CNC(=O)c1ccccc1)c1ccc(Cl)cc1 | XTT |  | NL4-3 | TZM-gfp |  | EC50 | 0.88 µM
CC(=O)Oc1ccc(/C=C/C(=O)Nc2ccc(S(=O)(=O)Nc3cccc(Cl)c3F)cc2)cc1OC(C)=O |  |  |  | MT-4 |  | EC50 | >25 µM
Cc1ncc(-c2ccc(OCC3CCOCC3)cn2)c(N2CCC3CCCCC3C2)c1[C@H](OC(C)(C)C)C(=O)O | luminescence |  | NL4-3 | MT-2 |  | EC50 | 5.6 µM
O=C(/C=C/c1ccc(O)c(O)c1)Nc1ccc(S(=O)(=O)Nc2ccccc2Br)cc1 |  |  |  | MT-4 |  | EC50 | 13 µM
CCN(C(=O)[C@H](Cc1ccccc1)NC(=O)CNC(=O)c1ccccc1)c1ccccc1 | XTT |  | NL4-3 | TZM-gfp |  | EC50 | 2.5 µM
CCOC(=O)[C@H](C)NP(=O)(OC[C@@H]1OC[C@H](n2cnc3c(OC)nc(N)nc32)O1)Oc1ccccc1 | RT activity |  | LAI | PBMC |  | EC50 | 0.004 µM
Cc1ncc(-c2ccc(OCC(C)C)cn2)c(N2CCC3(CCC3)CC2)c1[C@H](OC(C)(C)C)C(=O)O | luminescence |  | NL4-3 | MT-2 |  | EC50 | 36.1 µM
Cc1ccc(COc2cccc(C(=N)N)c2)cc1 | β-galactosidase / cell fusion |  |  | HUT4-3/SX22-1 |  | EC50 | >10 µM
Cc1cc(C)cc(NS(=O)(=O)c2ccc(NC(=O)/C=C/c3ccc(O)c(O)c3)cc2)c1 |  |  |  | MT-4 |  | EC50 | >12 µM
COc1ccc(S(=O)(=O)N(CC2CCCC2)C(=O)C(=O)C(=O)[C@@H](Cc2ccccc2)NC(=O)OC(C)(C)C)cc1 | p24 |  | IIIB | CEM |  | EC50 | <1 µM
Cc1ncc(-c2ccc(OCC3CCOC3)cn2)c(N2CCC3(CCCC3)CC2)c1[C@H](OC(C)(C)C)C(=O)O | luminescence |  | NL4-3 | MT-2 |  | EC50 | 7.6 µM
CC(C)(C)S(=O)(=O)N(CC1CCCC1)C[C@@H](O)CN(CCc1ccccc1)C(=O)c1ccccc1 | p24 |  | IIIB | CEM |  | EC90 | 1 µM
COc1c(OC(C)=O)cc2c(c1O)-c1c(cc(O)c(OC)c1OC)C[C@@H](C)[C@@H](C)C2 | cytopathic effect |  |  | C8166 |  | EC50 | 3.24 µg/mL

The last 4 rows once more:

structure,method,conditions,strain or isolate,cell line,mutations,measure,value
COc1ccc(S(=O)(=O)N(CC2CCCC2)C(=O)C(=O)C(=O)[C@@H](Cc2ccccc2)NC(=O)OC(C)(C)C)cc1,p24,,IIIB,CEM,,EC50,<1 µM
Cc1ncc(-c2ccc(OCC3CCOC3)cn2)c(N2CCC3(CCCC3)CC2)c1[C@H](OC(C)(C)C)C(=O)O,luminescence,,NL4-3,MT-2,,EC50,7.6 µM
CC(C)(C)S(=O)(=O)N(CC1CCCC1)C[C@@H](O)CN(CCc1ccccc1)C(=O)c1ccccc1,p24,,IIIB,CEM,,EC90,1 µM
COc1c(OC(C)=O)cc2c(c1O)-c1c(cc(O)c(OC)c1OC)C[C@@H](C)[C@@H](C)C2,cytopathic effect,,,C8166,,EC50,3.24 µg/mL

Conditions beyond the fields shown may differ between rows. ECn is the concentration giving n% inhibition of infection, replication or growth.